Common to all, as to assay: cell viability relative to vehicle control; higher = less cytotoxic
Details in all cases: 10 µM

One assay relates to K562. In outline: (§1)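 CRISPR-edited mutant clones and isogenic wild-type clones from four leukaemia lines were screened against Selleck bioactive, kinase and epigenetic probe libraries, with identity-inconsistent compounds excluded. Each compound was acoustically dispensed at a single 10 µM dose into 384-well plates holding 2000 cells in 50 µL medium per well. After 48 h the supernatant was removed and CellTiter-Glo luminescence was read. Viability was expressed as percent of the on-plate vehicle control and analysed in Genedata Screener.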

The next assay has as its system MARIMO. The procedure, abridged:
as §1

For a further assay, the system named is MOLM14. The procedure, abridged:
as §1

Another assay has as its system OCI-AML2. The procedure, abridged:
as §1

Where “and” joins values, the source holds several entries; their conditions need not be identical. Equal entries are not always repeated. The entries are a selection whose mix differs from that of the whole data set.

Broadly, the cell viability is a read-out of living cells in per cent, often relative to untreated cells. With `COc1ccc(C(=O)CBr)cc1` [PTP Inhibitor II], the cell viability in the assay with K562 (SRSF2 genotype: SRSF2 P95H/wt) is 101% and 105%; in the assay with K562 (SRSF2 genotype: SRSF2 wt/wt), 103%; with MARIMO (SRSF2 genotype: SRSF2 P95H/wt), 97.5%; with MARIMO (SRSF2 genotype: SRSF2 wt/wt), 107%; in the assay with MOLM14 (SRSF2 genotype: SRSF2 P95H/wt) it was 94.9%; with MOLM14 (SRSF2 genotype: SRSF2 wt/wt), 105%. The cell viability turned out to be 101% with OCI-AML2 (SRSF2 genotype: P95H/wt) and 99.6% with OCI-AML2 (SRSF2 genotype: wt/wt).

For the origin of these results see the supplement of paper PMC10981050.
